## Share of PSTVd loop 6 variants by leaf site

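Three N. benthamiana plants were inoculated with the whole mutant pool. Samples came from the inoculated region at 5 days, the leaf margin at 10 and upper systemic leaves at 12.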

Region: loop 6 of PSTVd (intermediate strain), upper and lower strand joined, each 5' to 3', the first 5 letters being the upper strand, closing pairs included. Wild type: UGACCGCGAG. Varied positions (N): UNNNCGNNNG.

Numbers give reads per thousand; 0 = not seen among the reads, higher = more abundant. Each site shows the three plants. "Pool" is the share in the plasmid pool used as inoculum, on the same scale. The inoculated region was read from the minus strand, the other sites from the plus strand. The authors trace changes outside the varied positions to PCR and sequencing errors or to mutation in the plant; presence does not show that a variant is infectious alone. Samples held 36,220 to 57,551 reads, so the smallest values rest on one or two reads. Wild type was 20.7 per thousand in the pool and the most common sequence in every sample (inoculated region 195, 198, 203; leaf margin 629, 591, 734; systemic leaves 942, 870, 868).

sequence	pool	inoculated region	leaf margin	systemic leaves
UUUGCGUUAU	0.0131	0 0 0	0 0 0	0 0 0
UUUGCGUUCG	0.235	0.0695 0.126 0.0553	0.0552 0 0	0 0 0
UUUGCGUUGG	0.183	0.139 0.0539 0	0 0 0	0 0 0
UUUGCGUUUG	0.431	0.174 0.0898 0.0553	0.0552 0 0	0 0 0
UUUUCCCUGG	0.0131	0 0 0	0 0 0	0 0 0
UUUUCGAAAG	0.105	0.139 0.126 0.0553	0 0 0	0 0 0
UUUUCGAACG	0.235	0.122 0.0180 0.0738	0 0 0	0 0 0
UUUUCGAAGG	0.144	0.0348 0.0898 0.111	0 0 0	0 0 0
UUUUCGAAUG	0.353	0.122 0.0898 0.0184	0 0 0	0 0 0
UUUUCGACAG	0.196	0.0869 0.0359 0.166	0 0 0	0 0 0
UUUUCGACCG	0.144	0.0521 0.162 0.0738	0 0 0	0 0 0
UUUUCGACGG	0.275	0.156 0.108 0.0369	0 0 0	0 0 0
UUUUCGACUG	0.248	0.156 0.0180 0.129	0.0276 0 0.0232	0 0 0
UUUUCGAGAG	0.157	0.156 0.108 0.111	0.0276 0 0	0 0.0202 0
UUUUCGAGCG	0.170	0.104 0.144 0.0553	0 0 0.0232	0 0 0
UUUUCGAGGG	0.131	0.104 0.0719 0.166	0 0 0	0 0 0
UUUUCGAGUG	0.209	0.122 0.0539 0.0553	0 0 0	0 0 0
UUUUCGAUAG	0.235	0.156 0.162 0.0369	0.0276 0 0.162	0 0 0
UUUUCGAUCG	0.261	0.104 0.0180 0.0553	0 0 0.0232	0 0 0
UUUUCGAUGG	0.157	0.139 0.0359 0.0553	0 0 0	0 0 0
UUUUCGAUUG	0.235	0.122 0.0359 0.0738	0 0 0	0 0 0
UUUUCGCAAG	0.157	0.104 0.234 0.0553	0 0 0.0232	0 0 0
UUUUCGCACG	0.144	0.0695 0.0539 0.0922	0.0276 0 0.0232	0 0 0
UUUUCGCAGG	0.144	0.0521 0.0359 0.0369	0 0 0	0 0 0
UUUUCGCAUG	0.0654	0.0695 0.0539 0.166	0 0 0.0232	0 0 0
UUUUCGCCAG	0.131	0.0869 0.0359 0.0369	0 0 0	0 0 0
UUUUCGCCCG	0.209	0.156 0.0898 0.0922	0.0552 0 0	0 0 0
UUUUCGCCGG	0.248	0.156 0.0539 0.0369	0 0 0	0 0 0
UUUUCGCCUG	0.196	0.0695 0.0359 0.0738	0.0276 0 0	0 0 0
UUUUCGCGAG	0.0523	0.0869 0.0898 0.0369	0.110 0 0.0232	0 0 0
UUUUCGCGAU	0.0131	0.0348 0.0539 0.111	0 0 0.0232	0 0 0
UUUUCGCGCG	0.157	0.0869 0.0539 0.0738	0 0 0	0 0 0
UUUUCGCGGG	0.248	0.139 0.0359 0.0553	0 0 0	0 0 0
UUUUCGCGUG	0.196	0.226 0.0359 0.0553	0.0276 0 0	0 0 0
UUUUCGCUAG	0.118	0.156 0.0898 0.0553	0.0276 0 0.0232	0 0 0
UUUUCGCUCG	0.183	0.174 0.0719 0.111	0.0276 0 0	0 0 0
UUUUCGCUGG	0.0784	0.104 0.0898 0.0738	0 0 0.0232	0 0 0
UUUUCGCUUG	0.235	0.174 0.0359 0.0553	0 0 0.0232	0 0 0.0410
UUUUCGGAAG	0.0784	0.0695 0.108 0	0 0 0	0 0 0
UUUUCGGACG	0.261	0.156 0.0539 0.0369	0 0 0	0 0 0
UUUUCGGAGG	0.105	0.0869 0.0898 0.0738	0 0 0	0 0 0
UUUUCGGAUG	0.144	0.0695 0.0719 0.0369	0 0 0.0232	0 0 0
UUUUCGGCAG	0.170	0.139 0.0898 0.0738	0 0 0	0 0 0
UUUUCGGCCG	0.144	0 0.126 0.0922	0 0 0.0696	0 0 0
UUUUCGGCGG	0.131	0.0174 0.0719 0.0738	0.0276 0 0.0232	0 0 0
UUUUCGGCUG	0.248	0.0348 0.0898 0.0369	0 0 0	0 0 0
UUUUCGGGAG	0.144	0.608 0.557 0.369	0.0276 0.0757 0.0696	0 0.0404 0.0410
UUUUCGGGCG	0.105	0.0869 0.0898 0.129	0.0276 0 0	0 0 0
UUUUCGGGGG	0.0915	0.139 0.108 0.0738	0 0 0.0232	0 0 0
UUUUCGGGUG	0.131	0.226 0.0898 0.129	0 0 0	0 0 0
UUUUCGGUAG	0.170	0.0695 0.0539 0.0184	0 0 0	0 0 0
UUUUCGGUCG	0.209	0.139 0.108 0.0553	0 0 0	0 0 0
UUUUCGGUGG	0.170	0.122 0.144 0.0738	0 0 0	0 0 0
UUUUCGGUUG	0.209	0.0869 0.144 0.0738	0 0 0	0 0 0
UUUUCGUAAG	0.118	0.104 0.0180 0.111	0 0 0	0 0 0
UUUUCGUACG	0.301	0.0869 0.0359 0.0553	0.0276 0 0	0 0 0
UUUUCGUAGG	0.248	0.0521 0.0719 0.0184	0 0 0.0232	0 0 0
UUUUCGUAUG	0.235	0.122 0.0539 0.0922	0.387 0 0	0 0 0
UUUUCGUCAG	0.222	0.0695 0.0898 0.0369	0.0276 0 0	0 0 0
UUUUCGUCCG	0.131	0.156 0.0898 0.0922	0 0 0	0 0 0
UUUUCGUCGG	0.0915	0.139 0.0359 0.111	0.0552 0 0	0 0 0
UUUUCGUCUG	0.288	0.139 0 0.0369	0 0 0.0232	0 0 0
UUUUCGUGAG	0.327	0.139 0.108 0.0553	0 0 0.0232	0 0 0
UUUUCGUGCG	0.118	0.0869 0.0539 0.111	0 0 0	0 0 0
UUUUCGUGGG	0.183	0.0869 0.0539 0.0369	0 0 0	0 0 0
UUUUCGUGUG	0.248	0.0695 0.0359 0.0738	0 0 0	0 0 0
UUUUCGUUAG	0.222	0.156 0.0539 0.0184	0 0 0	0 0 0
UUUUCGUUCG	0.105	0.156 0.0898 0.0553	0 0 0	0 0 0
UUUUCGUUGG	0.235	0.0869 0.0898 0.0553	0 0 0	0 0 0
UUUUCGUUUG	0.484	0.139 0.0898 0.0922	0 0 0.0232	0 0 0
UUUUCUAUAG	0.0131	0 0 0	0 0 0	0 0 0
UUUUGGGAUG	0.0131	0 0 0	0 0 0	0 0 0

The opening 5 entries, copied out:

sequence,pool,inoculated region,leaf margin,systemic leaves
UUUGCGUUAU,0.0131,0 0 0,0 0 0,0 0 0
UUUGCGUUCG,0.235,0.0695 0.126 0.0553,0.0552 0 0,0 0 0
UUUGCGUUGG,0.183,0.139 0.0539 0,0 0 0,0 0 0
UUUGCGUUUG,0.431,0.174 0.0898 0.0553,0.0552 0 0,0 0 0
UUUUCCCUGG,0.0131,0 0 0,0 0 0,0 0 0

The measurements come from Wu et al. 2024 (doi:10.1371/journal.ppat.1012142).